Laboratory results reported in patent US10358419B2, “1,3-dipolar [70]fulleropyrrolidinium iodide derivatives” (priority 2015, dated 2019).

Test system: SupT1 cells
Details: SupT1, 24 hrs, MTT assay (FIG. 2)

Question: Which “lethal concentration 50” value does the source give for “mixture of α, β and γ-N—N-dimethyl[70]fulleropyrrolidinium iodide [Compound 2a]” here?
Answer: The value was “over 32 μM”.
